From article PMC3928294 (PLoS ONE, 2014)

Biological target: H5 HA (A/Vietnam/1194/04) (Influenza A virus A/Vietnam/1194/2004 …, UniProt C5MRF4, strain)
Assay: SPR

B1: mouse monoclonal antibody H5M9 (antibody, V domains shown)
VH: EVHLQQSGPELVKPGASVKMSCKTSGYTFTEYTIHWMKQSHGKSLEWIGGIFPNNGDTTYNQKFKIRATLTVGKSSSTAYMDLRSLTSEDSAVYYCVRNYGSSYGYFDVWGAGTTVTVSS
VL: DIVLTQSPGSLTVSLGQRATISCRASESVDNFGKSFMHWYQQKPGQSPKLLIYRASNREFGIPARFNGSGSGTDFALTINPVEADDVATYFCQQSNEDPRTFGGGTKLEIK
notes: also called mH5M9; source: purified from mouse ascites by caprylic acid-ammonium sulfate precipitation
Kd: 30.5 pM

B2: chimeric H5M9 (antibody, V domains shown)
VH: EVHLQQSGPELVKPGASVKMSCKTSGYTFTEYTIHWMKQSHGKSLEWIGGIFPNNGDTTYNQKFKIRATLTVGKSSSTAYMDLRSLTSEDSAVYYCVRNYGSSYGYFDVWGAGTTVTVSS
VL: DIVLTQSPGSLTVSLGQRATISCRASESVDNFGKSFMHWYQQKPGQSPKLLIYRASNREFGIPARFNGSGSGTDFALTINPVEADDVATYFCQQSNEDPRTFGGGTKLEIK
Kd: 43.1 pM
